PubChem BioAssay AID624099 – ICCB-Longwood, 2012

- Assay: 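Host factors E2 relies on to silence an HPV18 LCR reporter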 (primary screen)
- Cell system: human C33A cervical carcinoma cells (HPV-negative) stably expressing BPV1 E2 and an HPV18 LCR luciferase reporter
- Knock-down reagent: siRNA pool against human genes, 40 nM
- Timing: 72 h
- Read-out: 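Per-well luciferase luminescence, z-scored on each plate against the plate mean and SD with control wells left out, then averaged across three replicate plates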
- Reading the numbers: mean z-score and z-score: higher = stronger reporter signal, weaker E2 silencing
- Rule for the call: 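Hit if mean z-score reaches 2 and two or more of three replicate z-scores also reach 2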
This is one part, drawn at random, of about 21,000 reagents tested. Over the whole deposit, 497 (2.4%) got an active call. 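Higher z means weaker E2 silencing; only reporter increases were scored, and knock-downs that hurt cell survival may mask genuine repressor factors.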 Entries without a mark were called inactive. Reagents against one gene are numbered here. No sequences are given here.

PLEK2 | mean z-score: 1.59; z-score, replicate A: 1.51; z-score, replicate B: 1.46; z-score, replicate C: 1.79
LOC392164 (retired record) | mean z-score: 0.14; z-score, replicate A: -0.24; z-score, replicate B: 0.41; z-score, replicate C: 0.26
LOC401312 #1 | mean z-score: -1.05; z-score, replicate A: -1.35; z-score, replicate B: -0.9; z-score, replicate C: -0.92
LOC401312 #2 | mean z-score: -0.68; z-score, replicate A: -0.62; z-score, replicate B: -0.47; z-score, replicate C: -0.94
ZNF788P | mean z-score: 0.58; z-score, replicate A: 0.65; z-score, replicate B: 0.35; z-score, replicate C: 0.74
PDZRN3 | mean z-score: 0.67; z-score, replicate A: 0.71; z-score, replicate B: 0.75; z-score, replicate C: 0.54
WDFY2 | mean z-score: 0.39; z-score, replicate A: 0.37; z-score, replicate B: 0.2; z-score, replicate C: 0.59

Next part (2 carried over from the part before).
PDZRN3 | mean z-score: 0.67; z-score, replicate A: 0.71; z-score, replicate B: 0.75; z-score, replicate C: 0.54
WDFY2 | mean z-score: 0.39; z-score, replicate A: 0.37; z-score, replicate B: 0.2; z-score, replicate C: 0.59
CHRM3 | mean z-score: 1.23; z-score, replicate A: 1; z-score, replicate B: 1.4; z-score, replicate C: 1.3
NDRG3 | mean z-score: -0.3; z-score, replicate A: -0.74; z-score, replicate B: 0.1; z-score, replicate C: -0.27
ETS1 | mean z-score: -0.05; z-score, replicate A: 0.22; z-score, replicate B: -0.04; z-score, replicate C: -0.33
LOC401891 (retired record) | mean z-score: -0.95; z-score, replicate A: -0.93; z-score, replicate B: -0.97; z-score, replicate C: -0.94
KDM1B | mean z-score: -0.09; z-score, replicate A: -0.56; z-score, replicate B: 0.27; z-score, replicate C: 0
NINL | mean z-score: 1.78; z-score, replicate A: 1.85; z-score, replicate B: 1.65; z-score, replicate C: 1.85
CRYZL1 | mean z-score: 0.26; z-score, replicate A: 0.08; z-score, replicate B: 0.39; z-score, replicate C: 0.29
IL26 | mean z-score: 0.12; z-score, replicate A: 0.19; z-score, replicate B: -0.02; z-score, replicate C: 0.2
IP6K3 | mean z-score: 0.22; z-score, replicate A: 0.52; z-score, replicate B: 0.29; z-score, replicate C: -0.16
ZSCAN9 | mean z-score: 0.23; z-score, replicate A: 0.09; z-score, replicate B: 0.37; z-score, replicate C: 0.25
PDK4 #1 | mean z-score: 0.02; z-score, replicate A: -0.39; z-score, replicate B: -0.09; z-score, replicate C: 0.53
PDK4 #2 | mean z-score: 0.93; z-score, replicate A: 0.33; z-score, replicate B: 1.87; z-score, replicate C: 0.58
CLVS2 | mean z-score: -0.12; z-score, replicate A: 0.09; z-score, replicate B: -0.16; z-score, replicate C: -0.3
TRIM31 | mean z-score: -0.05; z-score, replicate A: 0.19; z-score, replicate B: -0.53; z-score, replicate C: 0.18
